Experimental data taken from PubChem BioAssay AID492967 (ICCB-Longwood Screening Facility, Harvard Medical School, 2010).
Only a part is listed here, and it is no random draw. The source made the active and inactive calls. No stated cut-off is given here; in the data, active means z-score mostly below about -2.9 (no sharp cut-off); inactive means mostly above about -1.9.

What follows are compounds tested on CapD gamma-glutamyltranspeptidase (Bacillus anthracis Ames Ancestor) (assay: Bacillus anthracis CapD inhibitors, primary screen, biochemical, fluorescence intensity (AID 492967)). Details: purified CapD enzyme, fluorescence intensity read-out; hits give low values.

Structure (SMILES)	z-score
CC(C)(C)OC(=O)N1CCC(=O)CC1	inactive: -0.19
N#CC(C#N)=Cc1ccc2c(c1)OCO2	inactive: 0.53
CC(C)(C)OC(=O)N1CCC(Nc2ccc(OC(F)(F)F)cc2)CC1	inactive: 0.635
COc1cccc(OC)c1CN1CCC(Nc2ccccc2)CC1	inactive: -0.085
c1ccc(CN2CCC(Nc3ccc4c(c3)OCO4)CC2)cc1	inactive: 1.64
FC(F)(F)Oc1ccc(NC2CCNCC2)cc1	inactive: 0.855
CC(=O)N1CCc2cc(N(C(=O)/C=C/c3ccccc3)C3CCN(Cc4ccccc4)CC3)ccc21	inactive: -0.205
CC1CN(CCc2ccccc2)CCC1=O (configuration not stated)	inactive: 0.135
N#CC1(Nc2ccccc2)CCN(Cc2ccccc2)CC1	inactive: 0.275
Cc1ccccc1NC1CC(C)(C)NC(C)(C)C1	inactive: -0.54
CCCN1CCC(Nc2ccc(OC)c(OC)c2)CC1	inactive: 0.53
CCOC(=O)N1CCC(Nc2cccc(C)c2)CC1	inactive: 0.16
CC(C)(C)c1cc2cc(N(C(=O)c3ccc(C(F)(F)F)cc3)C3CCN(Cc4ccccc4)CC3)ccc2[nH]1	inactive: -0.135
O=C1CCN(Cc2ccccc2)CC1	inactive: 0.6
CC(=O)N1CCc2ccc(N(C(=O)C(C)(C)C)C3CCN(Cc4ccccc4)CC3)cc21	inactive: 0.255
CC1CC(C(=O)N2CCN(C/C=C/c3ccccc3)CC2)C2CCCC12 (configuration not stated)	inactive: 0.205
CCOC(=O)N1CCC(Nc2ccc(F)cc2)CC1	inactive: 0.295
CCN1CCC(Nc2ccc(F)cc2)CC1	inactive: 0.975
CC1CN(C)C(C)CC1Nc1ccccc1 (configuration not stated)	inactive: -0.645
CC1CN(CCc2ccccc2)C(C)CC1=O (configuration not stated)	inactive: -0.13
CC1CN(Cc2ccccc2)CCC1=O (configuration not stated)	inactive: 1.61
CC(C)(C)OC(=O)N1CCC(Nc2ccccc2)CC1	inactive: 0.08
CN1CCC(Nc2ccc(F)cc2)CC1	inactive: 0.695
O=C1CCN(CCc2ccccc2)CC1	inactive: 0.13
NC(=O)C1(Nc2ccccc2)CCN(Cc2ccccc2)CC1	inactive: 0.655
CCCN1CCC(Nc2cc(OC)cc(OC)c2)CC1	inactive: -0.13
COc1cccc(OC)c1CN1CCC(=O)CC1	inactive: -0.73
